Data published in article PMC11790949, “A multiplex method for rapidly identifying viral protease inhibitors” (Molecular Systems Biology, 2025).

Protein sequences, listed by entry. Tags and fused reporters are not part of them. Residues count along the entry.
UniProt P0C6X2, 3335-3637 limits assumed: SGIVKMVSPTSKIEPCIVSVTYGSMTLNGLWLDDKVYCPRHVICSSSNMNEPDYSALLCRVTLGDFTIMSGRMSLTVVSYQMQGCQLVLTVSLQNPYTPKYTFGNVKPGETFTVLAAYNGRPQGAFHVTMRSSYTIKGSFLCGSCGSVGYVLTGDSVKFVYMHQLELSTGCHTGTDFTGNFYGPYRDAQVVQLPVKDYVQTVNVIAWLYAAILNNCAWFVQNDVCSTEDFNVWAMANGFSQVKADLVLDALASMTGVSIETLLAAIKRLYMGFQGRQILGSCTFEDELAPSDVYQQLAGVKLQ
UniProt P0C6X5, 2940-3242 limits assumed: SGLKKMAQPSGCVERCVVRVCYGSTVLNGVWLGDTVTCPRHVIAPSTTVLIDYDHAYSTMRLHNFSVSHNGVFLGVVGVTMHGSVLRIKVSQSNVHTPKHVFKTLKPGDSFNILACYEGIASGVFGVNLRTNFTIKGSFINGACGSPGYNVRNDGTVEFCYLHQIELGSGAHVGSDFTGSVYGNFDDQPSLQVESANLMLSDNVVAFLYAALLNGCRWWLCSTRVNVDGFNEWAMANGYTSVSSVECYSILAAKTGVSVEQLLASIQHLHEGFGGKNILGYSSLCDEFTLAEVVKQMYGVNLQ

Experiments:
[1] = tested on: BWCoV-SW1-3CL; type: cell-based, Beluga whale coronavirus SW1
[2] = molecular target: HCoV-HKU1-3CL (Human coronavirus HKU1, UniProt P0C6X2); type: cell-based
[3] = molecular target: HCoV-NL63-3CL (Human coronavirus NL63, UniProt P0C6X5); type: cell-based

In the case of `O=C(Oc1ccc2ccc(=O)oc2c1)c1cccs1` [CB6762077], the Max relative growth [1] is reported as 1.621, the Max relative growth [2] is reported as 4.844 and the Max relative growth [3] is reported as 1.447.
